According to publication PMC11742315, “Identification of a staphylococcal dipeptidase involved in the production of human body odor” (The Journal of Biological Chemistry, 2024):

tested on: CCCC(C)(CCO)SC[C@H](N)C(=O)NCC(=O)O; experiment: purified protein; conditions: Mn2+-bound enzyme; 0.1 M Tris-HCl (pH 80 [sic]); coupled with ShPatB

With ShPepV (Staphylococcus hominis; D437A) as the substance, how does the Km read?
Its Km is 370 ± 30 µM.

And the kcat?
Its kcat is 5.79 s⁻¹.

What about the kcat/Km of the same substance?
Its kcat/Km is 15700 M⁻¹ s⁻¹.

For ShPepV (Staphylococcus hominis; I413W), which Km is on record?
The Km was 7790 ± 670 µM.

And the kcat?
Its kcat is 3.01 s⁻¹.

What about the kcat/Km of the same substance?
Its kcat/Km is 390 M⁻¹ s⁻¹.

For ShPepV (Staphylococcus hominis; M271R), which Km is on record?
Its Km is 2310 ± 80 µM.

And the kcat?
The kcat was 2.96 s⁻¹.

What about the kcat/Km of the same substance?
The kcat/Km was 1280 M⁻¹ s⁻¹.

ShPepV (Staphylococcus hominis; M439A) was tested. Which Km did it give?
The Km was 700 ± 10 µM.

What about the kcat of the same substance?
The kcat was 4.71 s⁻¹.

And the kcat/Km?
The kcat/Km was 6770 M⁻¹ s⁻¹.

How did the Km turn out when ShPepV (Staphylococcus hominis; A174V) was run?
The Km was 1580 ± 140 µM.

What about the kcat of the same substance?
Its kcat is 2.3 s⁻¹.

What about the kcat/Km of the same substance?
The kcat/Km was 1460 M⁻¹ s⁻¹.

ShPepV (Staphylococcus hominis; E175A) was tested. Which Km did it give?
The Km was 850 ± 110 µM.

What about the kcat of the same substance?
The kcat was 4.73 s⁻¹.

What about the kcat/Km of the same substance?
Its kcat/Km is 5590 M⁻¹ s⁻¹.
